Compound potency records, mixed from different reports. Data source: NIAID ChemDB in PubChem.

Common to all: growth or infection tests; agent: Rhinovirus

A number after MIC or MFC names an inhibition level or a share of isolates.

smiles | cell line | endpoint | method | strain or isolate | result
CN(C)c1nc(C(F)(F)F)nc2c1ncn2Cc1cccc(F)c1 | M-HELA | EC50 | plaque count | Serotype 19 | >8 µM
CCOc1ccc(-c2onc(N(CC)CC)c2Cc2c(N(CC)CC)noc2-c2ccc(O)cc2O)c(O)c1 | HeLa | EC50 | cytopathic effect | Serotype 2 | >17 µM
CSc1nsc(-c2ccc(O)cc2)c1C#N | HELA-OHIO | EC50 | cytopathic effect | Serotype 9 (group B) | >10 µM
Cc1cc(CCCCCOc2cc(Cl)c(-c3nnco3)c(Cl)c2)on1 | - | MIC80 | - | Serotype 25 | 2.42 µg/mL
CSc1nsc(-c2ccccc2)c1C#N | HELA-OHIO | EC50 | cytopathic effect | Serotype 2 (group B) | >80 µM
Cc1ccccc1Cn1cnc2c(N(C)C)nc(C(F)(F)F)nc21 | M-HELA | EC50 | plaque count | Serotype 19 | >8 µM
O=P1(O)OCC2O[C@@H](n3cnc4c(SCc5ccccc5)ncnc43)[C@H](O)C2O1 | - | MIC | - | TYPE 8 | 100 µg/mL
CSc1nsc(-c2ccc(OCCCCOc3ccc([N+](=O)[O-])cc3)cc2)c1C#N | HELA-OHIO | EC50 | cytopathic effect | Serotype 70 (group A) | >0.5 µM
CC(=O)c1ccoc1CCCOc1c(C)cc(-c2noc(C)n2)cc1C | HeLa | EC80 | cytopathic effect | 15 serotype mixtures | 1.9 µM
CSc1nsc(-c2ccc(OCCCCOc3ccccc3)cc2)c1C#N | HELA-OHIO | EC50 | cytopathic effect | Serotype 70 (group A) | 1 µM
Cc1cc(Cl)ccc1Cn1cnc2c(N(C)C)nc(C(F)(F)F)nc21 | M-HELA | EC50 | plaque count | Serotype 15 | >8 µM
CCOC(=O)c1ccc(OCCCCOc2ccc(-c3snc(SC)c3C#N)cc2)cc1 | HELA-OHIO | EC50 | cytopathic effect | Serotype 9 (group B) | >2 µM
CCN(CC)c1cc(-c2ccc(OC)cc2OC)on1 | HeLa | EC50 | cytopathic effect | Serotype 42 (group A) | >362 µM
CSc1nsc(-c2ccc(OCCCOc3ccc(C#N)cc3)cc2)c1C#N | HELA-OHIO | EC50 | cytopathic effect | Serotype 51 (group B) | >2 µM
CC[C@H]1OC(=O)[C@H](C)[C@@H](O[C@H]2C[C@@](C)(OC)[C@@H](O)[C@H](C)O2)[C@H](C)[C@@H](O[C@@H]2O[C@H](C)C[C@H](N(C)C)[C@H]2O)[C@](C)(O)C[C@@H](C)C(=O)[C@H](C)[C@@H](O)[C@]1(C)O | Human tracheal epithelial cells | EC50 | - | TYPE 2 | <10 µM
CCOc1cc(OC)ccc1-c1cc(N(CC)CC)no1 | HeLa | EC50 | cytopathic effect | Serotype 59 (group B) | 25.8 µM
N#Cc1cc([N+](=O)[O-])ccc1Oc1ccc(Cl)c(Cl)c1 | HeLa | EC50 | cytopathic effect | TYPE 5 | 0.6 µg/mL
CSc1nsc(-c2ccc(OC(C)(C)C)cc2)c1C#N | HELA-OHIO | EC50 | cytopathic effect | Serotype 45 (group A) | >40 µM
CCOC(=O)/C=C/[C@H](C[C@@H]1CCNC1=O)NC(=O)[C@H](Cc1ccc(F)cc1)NC(=O)[C@@H](NC(=O)c1cc(C)on1)C(C)C | - | EC50 | - | Serotype 1A | <0.14 µM
CC(=O)c1cc(CCCOc2c(C)cc(-c3noc(C)n3)cc2C)co1 | HeLa | EC50 | cytopathic effect | 15 serotype mixtures | <0.3 µM
CC(C)S(=O)(=O)c1ccc(Oc2ccc(C(=O)c3ccccc3)cc2)nc1 | HeLa | EC50 | cytopathic effect | TYPE 2 | >5 µg/mL
CN(C)c1nc(C(F)(F)F)nc2c1ncn2Cc1ccc(S(C)(=O)=O)cc1 | M-HELA | EC50 | plaque count | Serotype 5 | >8 µM
COc1ccc(-c2cc(N3CCCC3)no2)c(O)c1 | HeLa | EC50 | cytopathic effect | Serotype 29 (group B) | >384 µM
CCOC(=O)c1ccc(OCCC2CCN(c3ccc(C)nn3)CC2)cc1 | HeLa | EC50 | cytopathic effect | Serotype 59 | <0.1 µg/mL
Cc1ccc(Cn2cnc3c(N(C)C)nc(C(F)(F)F)nc32)cc1 | M-HELA | EC50 | plaque count | TYPE 3 | >2.5 µM
CS(=O)(=O)c1ccc(Oc2ccc(C(=O)c3ccccc3)cc2)nc1 | HeLa | EC50 | cytopathic effect | TYPE 1A | >10 µg/mL
CCOC(=O)c1ccc(OCCOc2ccc(-c3snc(SC)c3C#N)cc2)cc1 | HELA-OHIO | EC50 | cytopathic effect | Serotype 45 (group A) | >2 µM
Cc1cc(CCCCCOc2cc(Cl)c(-c3nnc(C)o3)c(Cl)c2)on1 | - | MIC50 | - | serotype 2 1A 1B 6 14 21 22 15 25 30 50 67 89 86 41 | 0.14 µg/mL
CN(C)c1nc(C(F)(F)F)nc2c1ncn2Cc1ccc(Br)cc1 | M-HELA | EC50 | plaque count | TYPE 1B | 0.03 µM
Cc1cc(CCCOc2c(C)cc(-c3noc(C(F)(F)F)n3)cc2C)on1 | - | EC50 | - | Serotype 10 | <0.3 µM
C#CCOc1cc(OC)ccc1-c1cc(N(CC)CC)no1 | HeLa | EC50 | cytopathic effect | Serotype 89 (group B) | >40 µM
CSc1nsc(-c2ccc(OCCCOc3ccc([N+](=O)[O-])cc3)cc2)c1C#N | HELA-OHIO | EC50 | cytopathic effect | Serotype 89 (group B) | >1 µM
CCO/N=C/c1ccc(OCCC2CCN(c3ccc(Cl)nn3)CC2)cc1 | KB | EC50 | neutral red | 1200 (ICAM-1 receptor group 33) | 0.003 µM
CN(C)c1nc(C(F)(F)F)nc2c1ncn2Cc1ccc(C(F)(F)F)cc1 | M-HELA | EC50 | plaque count | Serotype 8 | >8 µM
CCSc1ncnc2c1ncn2[C@@H]1OC2COP(=O)(O)OC2[C@H]1O | - | MIC | - | TYPE 1A | 1–3.2 µg/mL

3 of the rows above, restated:

smiles | cell line | endpoint | method | strain or isolate | result
Cc1cc(CCCCCOc2cc(Cl)c(-c3nnco3)c(Cl)c2)on1 | - | MIC80 | - | Serotype 25 | 2.42 µg/mL
C#CCOc1cc(OC)ccc1-c1cc(N(CC)CC)no1 | HeLa | EC50 | cytopathic effect | Serotype 89 (group B) | >40 µM
CSc1nsc(-c2ccc(OCCCCOc3ccc([N+](=O)[O-])cc3)cc2)c1C#N | HELA-OHIO | EC50 | cytopathic effect | Serotype 70 (group A) | >0.5 µM

Blank or dashed fields: not listed here. ECn is the concentration giving n% inhibition of infection, replication or growth. Two numbers with a dash give a range or band. Lines come from different laboratories, so protocols vary.